Assay results published in paper PMC4785407, “Reduction Impairs the Antibacterial Activity but Benefits the LPS Neutralization Ability of Human Enteric Defensin 5” (Scientific Reports, 2016).
Peptide text beside a SMILES is read from it.

Assay: HD5 forms in human luminal fluid (AU-PAGE immunoblotting, MALDI-TOF)
Settings: LF of terminal ileum, healthy donors, IAM-alkylated

**Q.** Which “existence in human luminal fluid” value does the source give for `CC[C@H](C)[C@H](NC(=O)[C@H](CCC(=O)O)NC(=O)[C@H](CS)NC(=O)[C@@H](NC(=O)CNC(=O)[C@H](CO)NC(=O)[C@H](CC(C)C)NC(=O)[C@H](CO)NC(=O)[C@H](CCC(=O)O)NC(=O)[C@H](CCCNC(=N)N)NC(=O)[C@@H](NC(=O)[C@H](C)NC(=O)[C@H](CS)NC(=O)[C@H](CCCNC(=N)N)NC(=O)CNC(=O)[C@@H](NC(=O)[C@H](CCCNC(=N)N)NC(=O)[C@H](CS)NC(=O)[C@H](Cc1ccc(O)cc1)NC(=O)[C@H](CS)NC(=O)[C@@H](NC(=O)[C@H](C)N)[C@@H](C)O)[C@@H](C)O)[C@@H](C)O)C(C)C)C(=O)N[C@@H](CO)C(=O)NCC(=O)N[C@@H](CCCNC(=N)N)C(=O)N[C@@H](CC(C)C)C(=O)N[C@@H](Cc1ccc(O)cc1)C(=O)N[C@@H](CCCNC(=N)N)C(=O)N[C@@H](CC(C)C)C(=O)N[C@@H](CS)C(=O)N[C@@H](CS)C(=O)N[C@@H](CCCNC(=N)N)C(=O)O` [HD5RED] (H-ATCYCRTGRCATRESLSGVCEISGRLYRLCCR-OH) here?
**A.** Its value is “mature HD5 existed as HD5OX and HD5RED in LF”.
